For one molecule, Potency results are on record in ChEMBL document CHEMBL1201862, “PubChem BioAssay data set” (2004).

Structures are written as SMILES. The entries are a selection whose mix differs from that of the whole data set. These assays gave more results; the selection is not random. Active and inactive are the calls of the source. No cut-off for these calls is given here.

The test can be described thus: qHTS for Stage-Specific Inhibitors of Vaccinia Orthopoxvirus: mCherry Reporter Primary qHTS. The format is functional. On the technique in general: qHTS replaces the single test concentration by a dilution series.
For the molecule `O=C(OC1CN2CCC1CC2)C12CC3CC(CC(C3)C1)C2` (stereo unspecified), the Potency entry was “inactive”.
